Pooled drug test results. Numbers come from NIAID ChemDB, via PubChem.

All rows: tests in culture

a–b is a range or a potency band. Blank or dashed fields: not listed here. A number after MIC or MFC names an inhibition level or a share of isolates. Lines come from different laboratories, so protocols vary. Percent inhibition refers to the dose given; in toxicity tests it is the harm to the cells.

compound,setting,method,tested at,agent,measure,strain or isolate,value
COc1ccccc1-c1c(-c2ccc(OCc3ccc(C)cc3)cc2O)n[nH]c1C(F)(F)F,,visual reading,,Mycobacterium marinum,MIC,,>50 µg/mL
CCCCCCCCCCCCCCCCCCCCCCCOC(=O)NC(CCC(=O)O)(CCC(=O)O)CCC(=O)O,,,,Mycobacterium marinum,MIC,ATCC 927,216 µg/mL
CO[C@H]1/C=C/O[C@@]2(C)Oc3c(C)c(O)c4c(=O)c(c5oc6cc(N7CCN(CC(C)C)CC7)cc(=O)c6nc5c4c3=C2O)NC(=O)/C(C)=C\C=C\[C@H](C)[C@H](O)[C@@H](C)[C@@H](O)[C@@H](C)[C@H](OC(C)=O)[C@@H]1C,,,,Mycobacterium ulcerans,MIC,Isolate 842,0.012 µg/mL
CCCCCCCc1ccc(NC(=O)NNC(=O)c2ccncc2)cc1,7 d,broth dilution,,Mycobacterium kansasii,MIC100,My 6509/96,62.5 µM
Cc1nc(Nc2ccc(Oc3ccc(OC(F)(F)F)cc3)cc2)c2ccc(F)cc2n1,,luminescence,,Mycobacterium bovis BCG,MIC50,,>20 µM
Fc1ccc2oc(=S)n(-c3ccc(Cl)cc3)c(=S)c2c1,21 d,,,Mycobacterium kansasii,MIC,My 235/80,4 µM
Cc1nc2ccc(Br)cn2c1C(=O)NCc1ccc(-c2ccc(Cl)cc2)cc1,,fluorescence,,Mycobacterium ulcerans,MIC50,,0.001–0.01 µg/mL
CO[C@H]1/C=C/O[C@@]2(C)Oc3c(C)c(O)c4c(O)c(c5c(c4c3C2=O)NC2(CCN(CC(C)C)CC2)N=5)=NC(=O)/C(C)=C\C=C\[C@H](C)[C@H](O)[C@@H](C)[C@@H](O)[C@@H](C)[C@H](OC(C)=O)[C@@H]1C,,,,Mycobacterium avium complex,MIC,N-981 (HIV+),0.25 µg/mL
O=c1oc2ccc(Cl)cc2c(=S)n1-c1cccc(F)c1,21 d,,,Mycobacterium kansasii,MIC,6509/96,8 µM
CC(C)N=C(N)/N=C(\N)NOCCCOc1cc(Cl)c(Cl)cc1Cl,,,,Mycobacterium avium complex,MIC,3030,32 µg/mL
CC1(C)N=C(N)N=C(N)N1OCCCOc1cc(Cl)c(Cl)cc1Cl,,,,Mycobacterium avium complex,MIC,1408,0.5 µg/mL
CC(C)(C)c1ccc(CCOc2ncnc3sccc23)cc1,,luminescence,,Mycobacterium bovis BCG,MIC50,,>20 µM
Cc1ccn2c(C(=O)NCc3ccc(C4CCN(c5ccc(OC(F)(F)F)cn5)CC4)c(F)c3)c(C)nc2c1,,fluorescence,0.17 µM,Mycobacterium avium,inhibition,,85%
CO[C@@]1(NC(=O)Cc2cccs2)C(=O)N2C(C(=O)O)=C(COC(N)=O)CS[C@@H]21,,,,Mycobacterium fortuitum,MIC,1004-8,25 µg/mL
FC(F)(F)Oc1ccc(Nc2ncnc3ccccc23)cc1,,luminescence,,Mycobacterium bovis BCG,MIC50,,>50 µM
CC[C@H]1OC(=O)[C@H](C)[C@@H](OC2C[C@@](C)(OC)[C@@H](O)[C@H](C)O2)[C@H](C)[C@@H](O[C@@H]2O[C@H](C)C[C@H](N(C)C)[C@H]2O)C(C)(O)C[C@@H](C)/C(=N\OCCCOc2ccccc2)[C@H](C)[C@@H](O)[C@]1(C)O,,,,Mycobacterium avium intracellulare,MIC,20066 (clarithromycin-susceptible),1.56 µg/mL
Clc1ccc(Nc2nnc(-c3ccncc3)o2)cc1Cl,14 d,broth dilution,,Mycobacterium kansasii,MIC100,My 6509/96,>125 µM
Cc1[nH]nc(-c2ccc(O)cc2O)c1-c1ccc(Br)cc1,,visual reading,,Mycobacterium marinum,MIC,,50 µg/mL
CC(C)N=c1cc2n(-c3ccc(Cl)cc3)c3ccccc3nc-2cc1Nc1ccc(Cl)cc1,,broth dilution,,Mycobacterium chelonae,MIC50,,≤0.5 µg/mL
CC(C)c1ccc(NC(=O)NNC(=O)c2ccncc2)cc1,21 d,broth dilution,,Mycobacterium kansasii,MIC100,My 235/80,32 µM
CC[C@H]1OC(=O)[C@H](C)[C@@H](OC2C[C@@](C)(OC)[C@@H](O)[C@H](C)O2)[C@H](C)[C@@H](O[C@@H]2O[C@H](C)C[C@H](N(C)C)[C@H]2O)C(C)(O)C[C@@H](C)/C(=N\OCCCc2ccccc2)[C@H](C)[C@@H](O)[C@]1(C)O,,,,Mycobacterium avium complex,MIC,20096 (clarithromycin-resistant),12.5 µg/mL
Nc1ccc(S(=O)(=O)c2ccc(N)cc2)cc1,,,,Mycobacterium avium complex,MIC,DW23,32 µg/mL
CCCCCCCCCCC(=O)O[C@H]1[C@H](C)OC(O[C@H]2[C@H](C)[C@@H](O[C@@H]3O[C@H](C)C[C@H](N(C)C)[C@H]3O)C(C)(O)C[C@@H](C)/C(=N\OCCCOc3ccccc3)[C@H](C)[C@@H](O)[C@](C)(O)[C@@H](CC)OC(=O)[C@@H]2C)C[C@@]1(C)OC,,,,Mycobacterium avium complex,MIC,20092 (clarithromycin-resistant),>50 µg/mL
CO[C@@]1(NC(=O)CCCC(N)C(=O)O)C(=O)N2C(C(=O)O)=C(COC(N)=O)CSC21,,,,Mycobacterium fortuitum,MIC,1263,>100 µg/mL
Cc1nc2ccccn2c1C(=O)NCc1ccc(N(C)C)cc1,,fluorescence,,Mycobacterium ulcerans,MIC50,,0.1–1 µg/mL
NNC(=O)c1ccncc1,14 d,broth dilution,,Mycobacterium kansasii,MIC100,My 6509/96,8 µM
CCCCCCCCCCCCCCCCCCCCCCCCCCCCCCOC(=O)NC(C)(CCC(=O)O)CCC(=O)O,,,,Mycobacterium abscessus,MIC,AAy-P-1,144 µg/mL
COc1ccn2nc(C)c(C(=O)NCc3ccc(N4CCN(c5ccc(OC(F)(F)F)cc5)[C@@H](C)C4)cc3)c2c1,,fluorescence,0.0058 µM,Mycobacterium avium,inhibition,,85%
CCOc1ccc(-c2n[nH]c(C(F)(F)F)c2-c2ccc(Cl)cc2)c(O)c1,,visual reading,,Mycobacterium marinum,MIC,,50 µg/mL
CCCCCCCCCCCCCCCCOC(=O)NC(C)(CCC(=O)O)CCC(=O)O,,,,Mycobacterium abscessus,MIC,AAy-P-1,4.5 µg/mL
CC[C@H]1OC(=O)[C@H](C)[C@@H](OC2C[C@@](C)(OC)[C@@H](O)[C@H](C)O2)[C@H](C)[C@@H](O[C@@H]2O[C@H](C)C[C@H](N(C)C)[C@H]2O)C(C)(O)C[C@@H](C)/C(=N\OCCc2cccs2)[C@H](C)[C@@H](O)[C@]1(C)O,,,,Mycobacterium avium complex,MIC,20096 (clarithromycin-resistant),25 µg/mL
Oc1ccc(-c2n[nH]c(C(F)(F)F)c2-c2ccc(Br)cc2)c(O)c1,,visual reading,,Mycobacterium marinum,MIC,,>50 µg/mL
Cc1nc2ccccn2c1C(=O)NCc1cccnc1,,fluorescence,,Mycobacterium ulcerans,MIC50,,>10 µg/mL
FC(F)(F)c1cccnc1Oc1ccc(Nc2ncnc3ccccc23)cc1,,luminescence,,Mycobacterium bovis BCG,MIC50,,>20 µM
Cc1cn2c(C(=O)NCc3ccc(N4CCN(c5ccc(OC(F)(F)F)cc5)[C@@H](C)C4)c(Cl)c3)c(C)nc2s1.Cl,,fluorescence,0.061 µM,Mycobacterium avium,inhibition,,85%
CO[C@@]1(NC(=O)C(C(=O)O)c2ccc(O)cc2)C(=O)N2C(C(=O)O)=C(CSc3nnnn3C)CO[C@@H]21,,,,Mycobacterium fortuitum,MIC,1059,>100 µg/mL
CCCCCCCCC(CCCCCCCC)OC(=O)NC(CCC(=O)O)(CCC(=O)O)CCC(=O)O,,,,Mycobacterium smegmatis,MIC,mc155,71 µg/mL
FC(F)(F)Oc1ccc(Oc2ccc(Nc3ncnc4ccccc34)cc2)cc1,,luminescence,,Mycobacterium bovis BCG,MIC50,,>20 µM
O=C(NNC(=O)c1ccncc1)Nc1ccc(F)cc1Br,14 d,broth dilution,,Mycobacterium kansasii,MIC100,My 6509/96,>125 µM
CO[C@@]1(NC(=O)Cn2cnnn2)C(=O)N2C(C(=O)O)=C(CSc3nnc(C)s3)CSC21,,,,Mycobacterium fortuitum,MIC,1047,100 µg/mL
Fc1cc(CNc2ncnc3ccccc23)ccc1N1CCN(c2ccc(C(F)(F)F)cn2)CC1,,luminescence,,Mycobacterium bovis BCG,MIC50,,>50 µM
CCCCCCCC(CCCCCCC)OC(=O)NC(CCC(=O)O)(CCC(=O)O)CCC(=O)O,,,,Mycobacterium marinum,MIC,ATCC 927,420 µg/mL
FC(F)(F)Oc1ccc(CCNc2ncnc3cc(C(F)(F)F)ccc23)cc1,,luminescence,,Mycobacterium bovis BCG,MIC50,,>20 µM
COc1ccc2oc(=O)n(-c3ccc(F)cc3)c(=S)c2c1,21 d,,,Mycobacterium kansasii,MIC,6509/96,16 µM
NCC[C@H](O)C(=O)N[C@@H]1C[C@H](N)[C@@H](O[C@H]2O[C@H](CN)[C@@H](O)[C@H](O)[C@H]2O)[C@H](O)[C@H]1O[C@H]1O[C@H](CO)[C@@H](O)[C@H](N)[C@H]1O,,broth dilution / visual reading,,Mycobacterium abscessus,MIC100,Clinical isolate MR313292,4 µg/mL
O=C(NNC(=O)c1ccncc1)Nc1c(Cl)cc(Cl)cc1Cl,14 d,broth dilution,,Mycobacterium kansasii,MIC100,My 235/80,>125 µM
COc1ccc2oc(=S)n(-c3ccc(C)cc3)c(=S)c2c1,21 d,,,Mycobacterium kansasii,MIC,6509/96,16 µM
CO[C@@]1(NC(=O)Cc2ccccc2)C(=O)N2C(C(=O)[O-])=C(CSc3nnc(C)s3)CSC21,,,,Mycobacterium fortuitum,MIC,1048,100 µg/mL
CCCCCCCCO/N=C1\[C@H](C)CC(C)(O)[C@H](O[C@@H]2O[C@H](C)C[C@H](N(C)C)[C@H]2O)[C@@H](C)[C@H](O[C@H]2C[C@@](C)(OC)[C@@H](OC(C)=O)[C@H](C)O2)[C@@H](C)C(=O)O[C@H](CC)[C@@](C)(O)[C@H](O)[C@H]1C,,,,Mycobacterium avium complex,MIC,20092 (clarithromycin-resistant),1.56 µg/mL
C[C@@H]1CN(c2c(F)c(N)c3c(=O)c(C(=O)O)cn(C4CC4)c3c2F)C[C@H](C)N1,,,,Mycobacterium avium complex,MIC,N-251 (HIV-),4 µg/mL
CCCCCCCCCCCCNNC(=O)O[C@H]1[C@H](O[C@@H]2[C@@H](C)[C@H](O[C@H]3C[C@@](C)(OC)[C@@H](OC(C)=O)[C@H](C)O3)[C@@H](C)C(=O)O[C@H](CC)[C@@](C)(O)[C@H](O)[C@@H](C)/C(=N/OCCCC3CCCCC3)[C@H](C)CC2(C)O)O[C@H](C)C[C@@H]1N(C)C,,,,Mycobacterium avium complex,MIC,20092 (clarithromycin-resistant),50 µg/mL
O=c1oc2ccc(Br)cc2c(=S)n1-c1ccc(F)cc1,14 d,,,Mycobacterium kansasii,MIC,6509/96,8 µM
CC[C@H]1OC(=O)[C@H](C)[C@@H](O[C@H]2C[C@@](C)(OC)[C@@H](O)[C@H](C)O2)[C@H](C)[C@@H](O[C@@H]2O[C@H](C)C[C@H](N(C)C)[C@H]2O)[C@](C)(OC)C[C@@H](C)C(=O)[C@H](C)[C@@H](O)[C@]1(C)O,,,,Mycobacterium avium complex,MIC,N-251 (HIV-),8 µg/mL
CC(C)(C)c1ccc(NC(=O)NNC(=O)c2ccncc2)cc1,21 d,broth dilution,,Mycobacterium kansasii,MIC100,My 235/80,125 µM
CO[C@H]1/C=C/O[C@@]2(C)Oc3c(C)c(O)c4c(O)c(c(/C=N/N5CCN(C6CCCC6)CC5)c(O)c4c3C2=O)NC(=O)/C(C)=C\C=C\[C@H](C)[C@H](O)[C@@H](C)[C@@H](O)[C@@H](C)[C@H](OC(C)=O)[C@@H]1C,,,,Mycobacterium avium intracellulare,MIC,141,0.5 µg/mL
CCCCCCCCCCCCCCCCCCCCCCCC(=O)NC(CCC(=O)O)(CCC(=O)O)CCC(=O)O,,,,Mycobacterium chelonae,MIC,EO-P-1,54 µg/mL
CCc1nc2ccc(Cl)cn2c1C(=O)NCc1ccc(-c2ccc(Cl)cc2)cc1,,fluorescence,,Mycobacterium ulcerans,MIC50,,0.001–0.01 µg/mL
Cc1nc2ccc(Cl)cn2c1C(=O)NCc1ccc(N2CCN(c3ccc(OC(F)(F)F)cc3)[C@@H](C)C2)c(F)c1,,fluorescence,0.0027 µM,Mycobacterium avium,inhibition,,85%
CC[C@H]1OC(=O)[C@H](C)[C@@H](O[C@H]2C[C@@](C)(OC)[C@@H](OC(C)=O)[C@H](C)O2)[C@H](C)[C@@H](O[C@@H]2O[C@H](C)C[C@H](N(C)C)[C@H]2O)C(C)(O)C[C@@H](C)/C(=N\OCCCc2ccccc2)[C@H](C)[C@@H](O)[C@]1(C)O,,,,Mycobacterium avium complex,MIC,20039 (clarithromycin-susceptible),1.56 µg/mL
Cc1ccn2c(C(=O)NCc3ccc(N4[C@@H]5CC[C@H]4CN(c4ccc(OC(F)(F)F)cc4)C5)c(F)c3)c(C)nc2c1,,fluorescence,0.2 µM,Mycobacterium avium,inhibition,,85%
CCCCCCCCO/N=C1\[C@H](C)CC(C)(O)[C@H](O[C@@H]2O[C@H](C)C[C@H](N(C)C)[C@H]2O)[C@@H](C)[C@H](OC2C[C@@](C)(OC)[C@@H](O)[C@H](C)O2)[C@@H](C)C(=O)O[C@H](CC)[C@@](C)(O)[C@H](O)[C@H]1C,,,,Mycobacterium avium complex,MIC,20039 (clarithromycin-susceptible),3.13 µg/mL
Cc1ccc2oc(=O)n(-c3ccc(Cl)c(Cl)c3)c(=S)c2c1,14 d,,,Mycobacterium kansasii,MIC,6509/96,8 µM
CCO/N=C1\[C@H](C)CC(C)(O)[C@H](O[C@@H]2O[C@H](C)C[C@H](N(C)C)[C@H]2O)[C@@H](C)[C@H](OC2C[C@@](C)(OC)[C@@H](O)[C@H](C)O2)[C@@H](C)C(=O)O[C@H](CC)[C@@](C)(O)[C@H](O)[C@H]1C,,,,Mycobacterium avium complex,MIC,20092 (clarithromycin-resistant),>50 µg/mL
CO[C@H]1/C=C/O[C@@]2(C)Oc3c(C)c(O)c4c(=O)c(c5oc6cc(N7CCN(CC(C)C)CC7)cc(=O)c6nc5c4c3=C2O)NC(=O)/C(C)=C\C=C\[C@H](C)[C@H](O)[C@@H](C)[C@@H](O)[C@@H](C)[C@H](OC(C)=O)[C@@H]1C,,,,Mycobacterium avium complex,MIC,N-962 (HIV+),0.0625 µg/mL
Cc1ccc2nc(C)c(C(=O)NCc3ccc(-c4ccc(Cl)cc4)cc3)n2c1,,fluorescence,,Mycobacterium ulcerans,MIC50,,0.001–0.01 µg/mL